Measured values from several laboratories, pooled; numbers as filed in NIAID ChemDB.

Common to all: growth or infection tests; organism: Hepatitis B virus; read-out: EC50

Neighbouring rows are from separate reports. a–b is a range or a potency band. ECn: concentration that inhibits the pathogen or its effect by n%.

Cc1cnc(C2CN(C(=O)c3ccc(Br)c(Cl)c3)CCS2(=O)=O)s1 ; cell line: HepG2.117 ; method: PCR ; value: <0.1 µM
Cc1c(C(=O)C(=O)NC(C)(C)c2cn[nH]c2)c(C)n(C)c1C(=O)Nc1ccc(F)c(C(F)(F)F)c1 ; cell line: HepG2.2.15 ; method: PCR ; value: <0.001 µM
O=C(NCc1ccc(OC2COC2)cc1F)c1c2n(c(=O)n1-c1ccc(OC3CC3)cc1)CCN(C(=O)c1ccc(Br)c(Cl)c1)C2 ; cell line: HepG2.117 ; method: PCR ; value: 0.1–0.5 µM
C=C[C@@](C)(NC(=O)C(=O)c1c(C)c(C(=O)Nc2ccc(F)c(C#N)c2)n(C)c1C)C(F)(F)F ; cell line: HepG2.2.15 ; method: PCR ; value: 0.001–0.0099 µM
Cn1nc2cc(NS(=O)(=O)c3cnn(CC4CN(C(=O)OC(C)(C)C)C4)c3)ccc2c1C(=O)Nc1ccc(F)c(Cl)c1 ; cell line: HepAD38 ; method: PCR ; value: 100–1000 µM
C[C@H](c1ccccc1)c1cnc([C@@]2(F)CN(C(=O)c3ccc(Br)c(Cl)c3)CCS2(=O)=O)s1 ; cell line: HepG2.117 ; method: PCR ; value: <0.1 µM
Cc1c(C(=O)C(=O)NC2(c3ccncc3)CC(F)(F)C2)c(C)n(C)c1C(=O)Nc1ccc(F)c(C(F)(F)F)c1 ; cell line: HepG2.2.15 ; method: PCR ; value: <0.001 µM
COc1ccc(-n2c(C(=O)NCc3ccccc3)c3n(c2=O)CCN(C(=O)c2ccc(Cl)c(Cl)c2)C3)cc1Cl ; cell line: HepG2.117 ; method: PCR / entry ; value: >5 µM
C#CC1(NC(=O)C(=O)c2c(C)c(C(=O)Nc3ccc(Br)c(Cl)c3)n(C)c2C)CC(F)(F)C1 ; cell line: HepG2.2.15 ; method: PCR ; value: 0.001–0.0099 µM
C[C@H](NC(=O)c1c2n(c(=O)n1-c1ccc(OCC(F)(F)F)cc1)CCN(C(=O)c1ccc(Br)c(Cl)c1)C2)c1cccc2nccnc12 ; cell line: HepG2.117 ; method: PCR ; value: 0.1–0.5 µM
C=C[C@@](CO)(NC(=O)C(=O)c1c(C)c(C(=O)Nc2ccc(F)c(C#N)c2)n(C)c1C)C(F)(F)F ; cell line: HepG2.2.15 ; method: PCR ; value: 0.001–0.0099 µM
O=C(c1ccc(Cl)c(Cl)c1)N1CCS(=O)(=O)C(c2nccs2)C1 ; cell line: HepG2.117 ; method: PCR ; value: 0.5–5 µM
C[C@@H](NC(=O)c1c2n(c(=O)n1-c1ccc(OCC(F)(F)F)cc1)CCN(C(=O)c1ccc(Br)c(Cl)c1)C2)c1ccc(OC(C)(C)C(N)=O)cc1F ; cell line: HepG2.117 ; method: PCR ; value: 0.1–0.5 µM
Cn1nc2cc(NS(=O)(=O)c3ccn(CC4CN(C(=O)OC(C)(C)C)C4)n3)ccc2c1C(=O)Nc1ccc(F)c(Cl)c1 ; cell line: HepAD38 ; method: PCR ; value: 100–1000 µM
C=CCNC(=O)C(=O)c1c(C)c(C(=O)Nc2ccnc(Br)c2F)n(C)c1C ; cell line: HepG2.2.15 ; method: PCR ; value: 0.01–0.099 µM
Cn1nc2cc(NS(=O)(=O)NCc3ccccn3)ccc2c1C(=O)Nc1ccc(F)c(Cl)c1 ; cell line: HepAD38 ; method: PCR ; value: <100 µM
CNC(=O)c1ccc(-n2c(=O)c3c(n4ncc(NCc5ccc(OC(F)F)cc5)c24)CN(C(=O)c2ccc(Cl)c(Cl)c2)CC3)cc1 ; cell line: HepG2.117 ; method: PCR ; setting: 3 d ; value: 0.5–5 µM
N#Cc1cc(C(=O)N2CCn3c(c(C(=O)NCc4ccccc4-c4ncccn4)n(-c4ccc(-n5cccn5)cc4)c3=O)C2)ccc1Br ; cell line: HepG2.117 ; method: PCR ; value: 0.1–0.5 µM
CNC(=O)c1ccc(-n2c(=O)c3c(n4ncc(Cc5ccc(OC)cc5F)c24)CN(C(=O)c2ccc(Br)c(C#N)c2)CC3)cc1 ; cell line: HepG2.117 ; method: PCR ; setting: 3 d ; value: 0.1–0.5 µM
Cn1nc2cc(NS(=O)(=O)c3ccn(-c4ccnc(N)n4)n3)ccc2c1C(=O)Nc1ccc(F)c(Cl)c1 ; cell line: HepAD38 ; method: PCR ; value: <100 µM
C[C@H]1Cn2c(c(C(=O)NCc3ccccc3-n3ccc(F)n3)n(-c3ccc(OC4CC4)cc3)c2=O)CN1C(=O)c1ccc(Br)c(Cl)c1 ; cell line: HepG2.117 ; method: PCR ; value: <0.1 µM
Cn1nc2cc(C(=O)NC[C@@H](O)CO)ccc2c1C(=O)Nc1ccc(F)c(Cl)c1 ; cell line: HepAD38 ; method: PCR ; value: >1000 µM
CNC(=O)c1ccc(-n2c(=O)c3c(n4ncc(NCc5ccccc5F)c24)CN(C(=O)c2ccc(Br)c(Cl)c2)CC3)cc1 ; cell line: HepG2.117 ; method: PCR ; setting: 3 d ; value: <0.1 µM
Cn1nc2ccc(NC(=O)OCc3ccc(F)cc3)cc2c1C(=O)Nc1ccc(F)c(Cl)c1 ; cell line: HepAD38 ; method: PCR ; value: >1000 µM
NC(=O)COc1ccc(-n2c(C(=O)NCc3ccccc3)c3n(c2=O)CCN(C(=O)c2ccc(Br)c(Cl)c2)C3)cc1 ; cell line: HepG2.117 ; method: PCR ; value: 0.5–5 µM
Cn1nc2cc(N(CCO)S(=O)(=O)c3cnn(-c4cc(OCC5CC5)ccn4)c3)ccc2c1C(=O)Nc1ccc(F)c(Cl)c1 ; cell line: HepAD38 ; method: PCR ; value: >1000 µM
O=C(Nc1ccc(F)c(Cl)c1)N1CCn2c(c3n(c2=O)CCCN(Cc2ccccc2)C3=O)C1 ; cell line: HepG2.2.15 ; method: PCR ; value: 0.1–0.5 µM
CN(C)CCN(C1CC1)S(=O)(=O)CNc1ccc2c(C(=O)Nc3ccc(F)c(Cl)c3)n(C)nc2c1 ; cell line: HepAD38 ; method: PCR ; value: 100–1000 µM
O=C(c1ccc(Br)c(Cl)c1)N1CCc2c(n3nccc3n(Cc3ccccc3)c2=O)C1 ; cell line: HepG2.117 ; method: PCR ; setting: 3 d ; value: 0.5–5 µM
Cn1nc2cc(NS(=O)(=O)c3cnn(-c4ccncn4)c3)ccc2c1C(=O)Nc1ccc(F)c(Cl)c1 ; cell line: HepAD38 ; method: PCR ; value: <100 µM
C[C@@H]1CS(=O)(=O)[C@H](c2cccs2)CN1C(=O)c1ccc(Br)c(Cl)c1 ; cell line: HepG2.117 ; method: PCR ; value: 0.5–5 µM